Patent publication US20130261077A1 (priority 2012, published 2013)

Protein sequences, listed by entry. Tags and fused reporters are not part of them. Residues count along the entry.
UniProt P08191, 22-177 limits assumed: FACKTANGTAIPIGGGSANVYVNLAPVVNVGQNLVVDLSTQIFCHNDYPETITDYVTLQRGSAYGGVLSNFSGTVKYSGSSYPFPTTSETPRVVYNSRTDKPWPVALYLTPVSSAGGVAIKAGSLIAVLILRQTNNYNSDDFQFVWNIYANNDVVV

Biological target: FimH-CRD (Escherichia coli, UniProt P08191)
Experiment: Competitive binding assay by fluorescence polarization, assay 2 (compounds prepared by robotics, plates frozen and thawed)
Settings: read-out: Assay 2 Kd (μM) ± Standard error of the mean (number of repeats); 5 nM Alexa 647 mannoside probe, 60 nM FimH-CRD, 5 hrs at room temperature; robotics dilution, frozen plates
Protocol: The first 177 amino acids of the FimH protein were expressed as a fusion protein with thrombin in a pET21b plasmid in bacteria. This FimH protein sequence contains the carbohydrate recognition domain (CRD) and shall be termed FimH-CRD. Following bacterial expression of the protein, the FimH-CRD protein was purified to homogeneity and the thrombin tag removed by protease cleavage. A competitive binding assay by fluorescence polarization was performed using 5 nM of the Alexa 647 mannoside probe and 60 nM of the FimH-CRD. The samples are assayed in a low volume 384 well microtiter plate in a final volume of 20 μl. The final assay buffer conditions are the following, 50 mM Tris-Cl, ph 7.0, 100 mM NaCl, 1 mM EDTA, 5 mM β-mercaptoethanol, 0.05% BSA and 2.5% DMSO. Two assays are performed for FimH, termed assay 1 or assay 2. […] Plates are read using the SpectraMax Paradigm multi-mode plate reader and the appropriate fluorescent polarization detection cartridge (Alexa-647). […]
The Kd values of the compounds are determined from dose response curves using twelve concentrations per compound in duplicate. Curves are fitted to data points using Fluorescence Polarization competitive displacement analysis, and Kds are interpolated from the resulting curves using GraphPad Prism software, version […] (GraphPad software Inc., San Diego, Calif., USA).

Cc1nnc(-c2ccc(-c3cccc([C@H]4O[C@H](CO)[C@@H](O)[C@H](O)[C@@H]4O)c3C)c(C)c2)o1
Kd: 0.0228 µM
